In patent US8017124 one finds decreased binding efficacy (against wild type DMBT1) data, which are given here for one substance.

For the test, the target named is recombinant HIV-gp120 (HIV). The test can be described thus: binding of partially purified salivary DMBT1 from deletion carriers against wild type donors.

For the substance “DMBT1 from saliva of donors carrying the DMBT1 germline deletion (shortened allele) (receptor)”, the decreased binding efficacy (against wild type DMBT1) amounted to 30%.
